{
  "sequences": {"note": "The chains behind the UniProt entries cited, without tags or fusion partners. Where a name states a change or a piece, a line headed by the entry shows the natural chain unless it says otherwise.", "UniProt P09616": "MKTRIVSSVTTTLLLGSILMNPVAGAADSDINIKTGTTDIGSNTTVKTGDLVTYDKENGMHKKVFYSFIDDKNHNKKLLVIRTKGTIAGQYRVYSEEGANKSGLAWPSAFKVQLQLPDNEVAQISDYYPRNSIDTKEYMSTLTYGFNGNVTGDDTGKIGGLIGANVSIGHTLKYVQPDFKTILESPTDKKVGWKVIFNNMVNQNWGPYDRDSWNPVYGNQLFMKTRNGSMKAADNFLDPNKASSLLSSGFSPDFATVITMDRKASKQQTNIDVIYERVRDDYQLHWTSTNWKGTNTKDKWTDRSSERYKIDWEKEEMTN"},
  "source": "patent US20140001056A1",
  "about": "(priority 2011, published 2014)",
  "key": {"WT-α-HL heptamer": {"molecular_target": "WT-α-HL heptamer (Staphylococcus aureus, UniProt P09616)", "experiment": "Planar lipid bilayer recording: insertion and function of α-HL heptamer", "settings": "for insertion of α-HL heptamer into planar lipid bilayer: above the CMC in the cis compartment; for α-HL pore insertion into planar lipid bilayer: below the CMC in the cis compartment"}, "α-HL monomer": {"molecular_target": "α-HL monomer (Staphylococcus aureus, UniProt P09616)", "experiment": "Planar lipid bilayer recording: insertion of α-HL monomer", "settings": "above the CMC in the cis compartment"}},
  "data": [
    {"substance": "Fluorinated fos-choline", "values": [
      {"measurement": "stopping membrane insertion of α-HL heptamers (titration)", "setting": "WT-α-HL heptamer; 3 and 4 mM, cis", "value": "not as effective"},
      {"measurement": "single-channel IV curve of α-HL", "setting": "WT-α-HL heptamer; F6FC 10 mM cis", "value": "unchanged"},
      {"measurement": "insertion of α-HL heptamer into planar lipid bilayer", "setting": "WT-α-HL heptamer", "value": "complete arrest"},
      {"measurement": "blockades or gating changes of α-HL pores already inserted", "setting": "WT-α-HL heptamer; above the CMC, cis compartment", "value": "did not cause blockades or changes in the gating"},
      {"measurement": "α-HL pore insertion into planar lipid bilayer", "setting": "WT-α-HL heptamer", "value": "pore insertion events continued"},
      {"measurement": "stopping membrane insertion of α-HL heptamers (titration)", "setting": "WT-α-HL heptamer; higher concentrations (6, 8, 9, 10 mM, cis)", "value": "completely prevent"},
      {"measurement": "insertion of α-HL monomer into planar lipid bilayer", "setting": "α-HL monomer", "value": "complete arrest"}
    ]},
    {"substance": "C6F13C2H4—S-poly[tris(hydroxymethyl)aminomethane]", "values": [
      {"measurement": "insertion of α-HL heptamer into planar lipid bilayer", "setting": "WT-α-HL heptamer", "value": "complete arrest"},
      {"measurement": "α-HL pore insertion into planar lipid bilayer", "setting": "WT-α-HL heptamer", "value": "pore insertion events continued"},
      {"measurement": "insertion of α-HL monomer into planar lipid bilayer", "setting": "α-HL monomer", "value": "complete arrest"}
    ]}
  ]
}
